One compound from PubChem BioAssay AID1159583 (ICCB-Longwood Screening Facility, Harvard Medical School, 2016) can be followed below.

The structures appear in SMILES notation. Only a part is listed here, and it is no random draw. Activity calls are given as the source filed them. Rule as the data show it: active = fluorescence inhibition mostly above about 23% (no sharp cut-off); inactive = mostly below about 17%.

The experiment is described as follows: hypoxia reporter signal reduction in M. tuberculosis – fluorescence, absorbance growth readout, primary screen (AID 1159583). The conditions noted are these: M. tuberculosis hypoxia-regulated fluorescent reporter, hits give high values, concentration not given here.
On to `CCOC(=O)Nc1ccc([As](=O)(O)O)c(O)c1`, for which the fluorescence inhibition is active: 34.6%.
